Compound potency records, mixed from different reports. Data source: NIAID ChemDB in PubChem.

All rows: growth or infection tests; species: Herpes simplex virus 1; method: plaque count; endpoint: inhibition

Inhibition is in % at the dose shown (toxicity tests: loss of growth or viability).

| smiles | dose | strain or isolate | cell line | value |
|---|---|---|---|---|
| CCCc1cn([C@H]2C[C@H](O)[C@@H](CO)O2)c(=O)[nH]c1=O | 25 µM | KOS | HeLa | >99% |
| CCCc1nc2n(n1)C(c1ccc([N+](=O)[O-])cc1)CC(=O)N2 | 50 µg/mL | 7401H | VERO | 17% |
| NC(N)N/N=C1C=C/C(=N/NC(N)N)C\1 | 30 µM | MP | HEP-2 | inactive |
| CSC(=Nc1ccc([N+](=O)[O-])cc1)Nc1ccc(Oc2ccc(/C=C(/Nc3ccc([N+](=O)[O-])cc3)SC)cc2)cc1 | 30 µM | - | VERO | <50% |
| CCC(=O)C(CCCCCCOc1ccc(OC)cc1Cl)C(=O)CC | 5 µg/mL | KOS | VERO | 98% |
| N=c1ncn(Cc2ccco2)c2nc[nH]c12 | 12 µg/mL | - | BSC-1 | 0% |
| CC(=O)N[C@@H](CC(C)C)C(=O)N[C@@H](CC(C)C)C(=O)N[C@H](C=O)CCCN=C(N)N | 40 µM | Fukuda | CV-1 | 56% |
| Cc1ccc(Cn2cnc(=N)c3[nH]cnc32)cc1 | 12 µg/mL | - | BSC-1 | 0% |
| C/C=C/c1cn([C@H]2C[C@H](O)[C@@H](CO)O2)c(=O)[nH]c1=O | 1 µM | C42 | VERO | 53% |
| CCCCCc1nc2n(n1)C(c1ccccc1)CC(=O)N2 | 50 µg/mL | 7401H | VERO | 88% |
| [N-]=[N+]=NC[C@H]1O[C@@H](n2cc(Br)c(=O)[nH]c2=O)C[C@@H]1O | 100 µM | - | VERO | 46% |
| Nc1nc2c(ncn2COCCO)c(=O)[nH]1 | 50 µM | - | BSC-1 | >99% |
| O=C(Nc1ccc(Oc2ccc(NC(=O)c3ccco3)cc2)cc1)c1ccco1 | 30 µM | - | VERO | >50% |
| NC(N)N/N=C1\C(=N\NC(N)N)Cc2ccccc21 | 30 µM | MP | HEP-2 | inactive |
| Cc1cccc(Cn2cnc(=N)c3[nH]cnc32)c1 | 50 µg/mL | - | BSC-1 | 9% |
| Cc1ccc(NS(=O)(=O)c2cccc(S(=O)(=O)Nc3ccc(C)cc3)c2)cc1 | 30 µM | - | VERO | >50% |
| C/C=C/c1cn([C@H]2C[C@H](O)[C@@H](CO)O2)c(=O)[nH]c1=O | 10 µM | KOS | HELA BU | >99% |
| O=S(=O)(c1ccc(OCc2ccncc2)cc1)c1ccc(OCc2ccncc2)cc1 | 5 µM | - | VERO | <50% |
| CCCCCCCC/C=C\CCCCCCCC(=O)OCC(CO[C@@H]1O[C@H](CO)[C@@H](O)[C@H](O)[C@H]1O)OC(=O)CCCCCCC/C=C\CCCCCCCC | 50 µg/mL | KOS | VERO | inactive |
| O=c1[nH]cnc2c1nnn2[C@H]1c2ccccc2C[C@@H]1O | 100 µM | F | VERO | 0% |
| CCCn1cnc(=N)c2[nH]cnc21 | 12 µg/mL | - | BSC-1 | 0% |
| O=[N+]([O-])c1ccccc1S(=O)(=O)n1c(CCc2ccccn2)nc2cc(Cl)c(Cl)cc21 | 2 µg/mL | - | - | 0% |
| [N-]=[N+]=NC[C@H]1O[C@@H](n2cc(Cl)c(=O)[nH]c2=O)C[C@@H]1O | 100 µM | - | VERO | 19% |
| O=[N+]([O-])c1ccc(NC(=S)Nc2ccc(Cc3ccc(NC(=S)Nc4ccc([N+](=O)[O-])cc4)cc3)cc2)cc1 | 30 µM | - | VERO | >90% |
| CC(C)C[C@H](NC(=O)[C@@H]1O[C@H]1C(=O)O)C(=O)NCCCCN=C(N)N | 20 µM | Fukuda | CV-1 | 0% |
| CCCCCCCCCCCCCCCCCCCCCC(=O)OCC(CO[C@@H]1O[C@H](CO)[C@@H](O)[C@H](O)[C@H]1O)OC(=O)CCCCCCCCCCCCC | 50 µg/mL | KOS | VERO | inactive |
| CCCc1nc2n(n1)C(c1ccccc1)CC(=O)N2 | 50 µg/mL | 7401H | VERO | 6% |
| CCCc1cn([C@H]2C[C@H](O)[C@@H](CO)O2)c(=O)[nH]c1=O | 10 µM | KOS | HELA BU | 93% |
| O=C1CC(c2ccccc2)n2nc(-c3cccnc3)nc2N1 | 50 µg/mL | 7401H | VERO | 8% |
| CCCCC/C=C\C/C=C\CCCCCCCC(=O)OCC(CO[C@@H]1O[C@H](CO)[C@@H](O)[C@H](O)[C@H]1O)OC(=O)CCCCCCC/C=C\C/C=C\CCCCC | 50 µg/mL | KOS | VERO | 50% |
| NC(N)N/N=C1/c2ccccc2/C(=N\NC(N)N)C1[N+](=O)[O-] | 30 µM | MP | HEP-2 | inactive |
| [N-]=[N+]=NC[C@H]1O[C@@H](n2cc(I)c(=O)[nH]c2=O)C[C@@H]1O | 100 µM | - | VERO | 40% |
| O=c1ccn(N2C[C@H](CO)[C@H]2CO)c(=O)[nH]1 | 10 µg/mL | - | VERO | 0% |
| O=[N+]([O-])c1ccc(NC(=S)Nc2ccc(Oc3ccc(NC(=S)Nc4ccc([N+](=O)[O-])cc4)cc3)cc2)cc1 | 30 µM | - | VERO | <50% |
| N=c1ncn(Cc2ccc(Cl)cc2Cl)c2nc[nH]c12 | 6 µg/mL | - | BSC-1 | 0% |
| O=[N+]([O-])c1ccc(COc2ccc(S(=O)(=O)c3ccc(OCc4ccc([N+](=O)[O-])cc4)cc3)cc2)cc1 | 30 µM | - | VERO | >50% |
| CCCCCCCCCCCCCCCCCC(=O)OCC(CO[C@@H]1O[C@H](CO)[C@@H](O)[C@H](O)[C@H]1O)OC(=O)CCCCCCCCCCCCCCCCC | 50 µg/mL | KOS | VERO | inactive |
| O=C1CC(c2ccc([N+](=O)[O-])cc2)n2nc(C3CCCCC3)nc2N1 | 50 µg/mL | 7401H | VERO | 32% |
| CC/C=C/C/C=C/C/C=C/CCCCCCCC(=O)OCC(CO[C@@H]1O[C@H](CO)[C@@H](O)[C@H](O)[C@H]1O)OC(=O)CCCCCCC/C=C\C/C=C\CCCCC | 50 µg/mL | KOS | VERO | 90% |
| CCc1cn([C@H]2C[C@H](O)[C@@H](CO)O2)c(=O)[nH]c1=O | 10 µM | KOS | HeLa | 99.3% |

The first 6 rows once more:

smiles	dose	strain or isolate	cell line	value
CCCc1cn([C@H]2C[C@H](O)[C@@H](CO)O2)c(=O)[nH]c1=O	25 µM	KOS	HeLa	>99%
CCCc1nc2n(n1)C(c1ccc([N+](=O)[O-])cc1)CC(=O)N2	50 µg/mL	7401H	VERO	17%
NC(N)N/N=C1C=C/C(=N/NC(N)N)C\1	30 µM	MP	HEP-2	inactive
CSC(=Nc1ccc([N+](=O)[O-])cc1)Nc1ccc(Oc2ccc(/C=C(/Nc3ccc([N+](=O)[O-])cc3)SC)cc2)cc1	30 µM	-	VERO	<50%
CCC(=O)C(CCCCCCOc1ccc(OC)cc1Cl)C(=O)CC	5 µg/mL	KOS	VERO	98%
N=c1ncn(Cc2ccco2)c2nc[nH]c12	12 µg/mL	-	BSC-1	0%

Blank or dashed fields: not listed here. For "inactive" no cut-off is given. Conditions beyond the fields shown may differ between rows.